Data published in US20160122395A1, “Immunogenic compositions and a process for producing same” (THE […] INSTITUTE FOR MEDICAL RESEARCH AND PUBLIC HEALTH LTD, priority 2013, published 2016).

Biological target: HIV-1 AD8 envelope glycoprotein (Env), wild type (HIV-1 (AD8 strain))
Test: cell-based or functional assay

“soluble CD4 (from UniProt P01730 26-396) (receptor)” showed an IC50, inhibition of Env-mediated cell-cell fusion by sCD4 (luciferase) of 60 µg/mL.
